Measured values as given in patent US4346087A, “Antibacterial surface active agent containing azaalkenelactam” (priority 1979, dated 1982).

Assays:
[1] = Metal corrosion inhibition in brake fluid A, aluminum; conditions: 100°±2° C., 120±2 hours, blank +0.07
[2] = Metal corrosion inhibition in brake fluid A, steel; conditions: 100°±2° C., 120±2 hours, blank -0.20
[3] = Metal corrosion inhibition in brake fluid A, cast iron; conditions: 100°±2° C., 120±2 hours, blank -0.14
[4] = Metal corrosion inhibition in brake fluid A, brass; conditions: 100°±2° C., 120±2 hours, blank -0.20
[5] = Metal corrosion inhibition in brake fluid A, tin-plate; conditions: 100°±2° C., 120±2 hours, blank -0.15
[6] = Metal corrosion inhibition in brake fluid A, copper; conditions: 100°±2° C., 120±2 hours, blank +0.18
[7] = Table 5, carboxylate derivatives […] by weight in brake fluid A
[8] = Table 4, azaalkenelactams […] by weight in brake fluid A

| Molecule | Weight change, aluminum [1, 7] | Weight change, steel [2, 7] | Weight change, cast iron [3, 7] | Weight change, brass [4, 7] | Weight change, tin-plate [5, 7] | Weight change, copper [6, 7] | Weight change, aluminum [1, 8] | Weight change, steel [2, 8] | Weight change, cast iron [3, 8] | Weight change, brass [4, 8] | Weight change, tin-plate [5, 8] | Weight change, copper [6, 8] |
| --- | --- | --- | --- | --- | --- | --- | --- | --- | --- | --- | --- | --- |
| CCCCCCCCCc1ccc(OCC(O)CNCCNCCNCCN2CC[N+](CC(=O)[O-])=CCC(C)C2=O)cc1 (stereo not drawn) [4-nonylphenoxy(2-hydroxy)propylaminoethylaminoethylaminoethyl-6-methyl-4-aza-1-azoniacyclooct-8-en-5-one-1-acetate] | +0.02 mg/cm^2 | -0.02 mg/cm^2 | -0.02 mg/cm^2 | -0.01 mg/cm^2 | -0.02 mg/cm^2 | 0 mg/cm^2 | – | – | – | – | – | – |
| 1-octadecylaminopropyl-4-methyl-1-aza-5-azoniacyclooct-4-en-2-one-5-propionate | +0.02 mg/cm^2 | -0.02 mg/cm^2 | -0.02 mg/cm^2 | -0.01 mg/cm^2 | -0.02 mg/cm^2 | 0 mg/cm^2 | – | – | – | – | – | – |
| CCCCCCCCOCCCN1CCN=C(C)CC1=O [Example 8, 4-octoxypropyl-7-methyl-3,6-dihydro-2H-1,4-diazepin-5-one] | – | – | – | – | – | – | +0.01 mg/cm^2 | -0.02 mg/cm^2 | -0.02 mg/cm^2 | -0.01 mg/cm^2 | -0.01 mg/cm^2 | +0.01 mg/cm^2 |
| CCCCCCCCC=CCCCCCCCCN1CC[N+](CC(=O)[O-])=CCCC1=O [4-(9-octadecenyl)-4-aza-1-azoniacyclooct-8-en-5-one-1-acetate] | +0.02 mg/cm^2 | -0.02 mg/cm^2 | -0.02 mg/cm^2 | -0.01 mg/cm^2 | -0.03 mg/cm^2 | 0 mg/cm^2 | – | – | – | – | – | – |
| CCCCCCCCCCCCCCNCCN1CC[N+](CC(=O)[O-])=CCCC1=O [4-tetradecylaminoethyl-4-aza-1-azoniacyclooct-8-en-5-one-1-acetate] | +0.01 mg/cm^2 | -0.02 mg/cm^2 | -0.01 mg/cm^2 | 0 mg/cm^2 | -0.02 mg/cm^2 | -0.01 mg/cm^2 | – | – | – | – | – | – |
| CCCCCCCCCCCCCCCCCCCCCCNCCN1CC[N+](CC(=O)[O-])=C(C)CC1=O [4-docosylaminoethyl-7-methyl-1-azonia-4-azacyclohept-7-en-5-one-1-acetate] | +0.02 mg/cm^2 | -0.02 mg/cm^2 | 0 mg/cm^2 | -0.01 mg/cm^2 | -0.03 mg/cm^2 | 0 mg/cm^2 | – | – | – | – | – | – |
| CCCCCCCCCCCC(=O)OCCN1CC[N+](CC(=O)[O-])=C(C)CC1=O [4-lauroyloxyethyl-7-methyl-1-azonia-4-azacyclohept-7-en-5-one-1-acetate] | 0 mg/cm^2 | -0.01 mg/cm^2 | -0.01 mg/cm^2 | -0.01 mg/cm^2 | -0.02 mg/cm^2 | 0 mg/cm^2 | – | – | – | – | – | – |
| CCCCCCCCCCCCN1CCCN=C(C)CC1=O [Example 3, 1-dodecyl-4-methyl-3,6,7,8-tetrahydro-1,5-diazocin-2-one] | – | – | – | – | – | – | +0.01 mg/cm^2 | 0 mg/cm^2 | -0.02 mg/cm^2 | -0.01 mg/cm^2 | 0 mg/cm^2 | +0.01 mg/cm^2 |
